Results of unrelated studies side by side (data: NIAID ChemDB).

Common to all: growth or infection tests; species: Mycobacterium tuberculosis

MIC bound: limit read from a one-dose screen.

structure,conditions,endpoint,cells,changes,tested at,strain,method,value
NNC(=O)C1=NN(c2ccccc2)C(=O)C1,,inhibition,,,12.5 µg/mL,H37Rv,BACTEC,0%
CC(NNC(=O)c1ccncc1)c1ccc(F)cc1,,MIC,,,,Ethambutol-resistant,,≤0.78 µg/mL
Cc1ccc2ccccc2c1[N+](=O)[O-],,MIC,,,,H37Rv,,>100 µg/mL
O=C1C=CC(=Nc2ccc(O)c3ncccc23)c2cccnc21,,inhibition,,,12.5 µg/mL,H37Rv,BACTEC,-16%
c1ccc2c(c1)NC(c1ccc(C3Nc4ccccc4S3)cc1)S2,,MIC,,,,H37Rv,,>200 µg/mL
C/C(=N\NC(=O)c1ccncc1)c1ccccc1F,,MIC,,,,H37Rv (ethionamide-resistant),,>31.25 µg/mL
CCOC(=O)CC1=NN(C(=O)c2ccccc2)C(=NC(=O)c2ccccc2)SC1,,MIC bound,,,,H37Rv,resazurin,>6.25 µg/mL
Nc1c(C(=O)O)cc(Cl)cc1[N+](=O)[O-],,MIC,,,,H37Rv,,50 µg/mL
Cc1cc(C(=O)NNCc2ccccc2)no1,,MIC bound,,,,H37Rv,BACTEC,>12.5 µg/mL
O=C(CCC(=O)c1ccc(F)cc1F)NC[C@H]1CN(c2ccc(N3CCOCC3)c(F)c2)C(=O)O1,,MIC,,,,ATCC 27294,,4 µg/mL
CCN1CCc2c(sc(NC(=O)c3c(F)c(F)c(F)c(F)c3F)c2C#N)C1,,MIC,,,,,low oxygen,140 µM
CCOC(=O)Nc1cc2[nH]c(=S)n3c(=S)[nH]c(n1)c23,,EC50,,,,H37Rv,,>12.5 µg/mL
N#CC(C(=O)NN)C1c2ccccc2Oc2ccccc21,,MIC bound,,,,H37Rv,BACTEC,>12.5 µg/mL
N[C@@H]1[C@@H](O)[C@H](O[C@@H]2[C@@H](O)[C@@H](O[C@@H]3O[C@H](CO)[C@@H](O)[C@H](O)[C@H]3O)[C@@H](N)C[C@H]2N)O[C@H](CO)[C@H]1O.O=S(=O)(O)O,,MIC,,,,H37Ra,resazurin,2.5 µg/mL
CCOC(=O)Nc1nc(NC(=O)OCC)c([N+](=O)[O-])c(Cl)c1[N+](=O)[O-],,EC50,,,,H37Rv,,>12.5 µg/mL
N#Cc1c(NC(=O)c2c(F)c(F)c(F)c(F)c2F)sc2c1CCOC2,,EC90,,rpoB S522L mutant,,H37Rv,turbidity,12 µM
O=C(NNCc1ccccc1)c1ccncc1,,MIC,,,,H37Rv (ethambutol-resistant),,1 µg/mL
C1CC[N+]2(CC1)CCCCC2.NC(=S)[S-],,MIC,,,,PAS-R,,3.1 µg/mL
CC(=O)NC[C@H]1CN(c2ccc(N3CCN(c4ccc([N+](=O)[O-])s4)CC3)c(F)c2)C(=O)O1,,MIC,,,,PC 4793,,>32 µg/mL
CCC(C)C1NC(=O)NC1=O,,MIC,,,,H37Rv,,>100 µg/mL
CCc1nc2ccccc2n1CCCNc1ccc(C)cc1,,MIC99,,,,H37Rv,turbidity / fluorescence,0.12 µM
Cc1cccc(OCC(=O)O)c1,,MIC,,,,H37Rv,,>100 µg/mL
CCCCC(=O)C(C)Nc1cc(NC(=O)OCC)nc(N)c1[N+](=O)[O-],,EC50,,,,H37Rv,,>12.5 µg/mL
CC(=O)NNS(=O)(=O)c1ccccc1,,MIC,,,,,,>40 µg/mL
N#Cc1cccc(C2Nc3ccccc3S2)c1,,MIC,,,,H37Rv,,6.25 µg/mL
O=c1[nH]c2cc([N+](=O)[O-])ccc2c(O)c1N=Nc1ccc(Br)cc1,,MIC,,,,H37Rv,resazurin,<6.25 µg/mL
Cc1cc(=O)c2c(o1)C(=O)c1occc1C2=O,,inhibition,,,12.5 µg/mL,H37Rv,BACTEC,14%
CCOc1cc2oc3cc(O)c(CCC(C)C)c(O)c3c(=O)c2c(CCC(C)C)c1OC,,MIC,,,,M11,resazurin,1.56 µg/mL
O=c1[nH]c2c([N+](=O)[O-])cccc2c(O)c1N=Nc1ccccc1[N+](=O)[O-],,inhibition,,,6.25 µg/mL,H37Rv,resazurin,80%
Cc1cc(S(=O)(=O)c2ccc(N)cc2)ccc1N,,MIC,,,,H37Rv,,100 µg/mL
Cc1cccc(C)c1N=Nc1c(O)c2cccc([N+](=O)[O-])c2[nH]c1=O,,MIC,,,,H37Rv,resazurin,>6.25 µg/mL
CSc1ccc(C(=O)CCC(=O)NC[C@H]2CN(c3ccc(N4CCOCC4)c(F)c3)C(=O)O2)cc1,,MIC,,,,10 clinical isolates resistant,,0.5 µg/mL
Cl.O=C(O)CSc1ccnc2cc(Cl)ccc12,,MIC,,,,H37Rv,,25 µg/mL
c1ccc(C2(c3ccccn3)Nc3ccccc3S2)cc1,,MIC,,,,H37Rv,,0.6 µg/mL
CN(C)c1ccc2nc3ccc(N)cc3[n+](-c3ccccc3)c2c1.[Cl-],,inhibition,,,12.5 µg/mL,H37Rv,BACTEC,100%
O=[N+]([O-])c1ccc2c(c1)S(=O)(=O)c1ccccc1-2,,MIC,,,,H37Rv,,>100 µg/mL
CC(C(=O)N1c2ccccc2Sc2ccccc21)[N+]1(C)CCCC1.[Br-],,inhibition,,,12.5 µg/mL,H37Rv,BACTEC,-1%
CCN1CCc2c(sc(NC(=O)c3c(F)c(F)c(F)c(F)c3F)c2C(=O)NC)C1,,EC90,,katG Y155 truncation mutant,,H37Rv,turbidity,2.4 µM
CCc1nc2ccccc2n1CCCCSc1ccc(OC)cc1,,MIC99,,,,H37Rv,turbidity / fluorescence,4.8 µM
CCC1OC(=O)C(C)C(OC2CC(C)(O)C(O)C(C)O2)C(C)C(O)C(C)(O)CC(C)C(=O)C(C)C(O)C1C,,inhibition,,,12.5 µg/mL,H37Rv,BACTEC,21%
O=C(N/N=C/c1ccc(O)cc1)c1ccccc1Cl,,MIC,,,,,,40 µg/mL
CCOC(=O)Nc1cc2c(nc(SCc3ccccc3)n2/N=C/c2ccccc2)c(N)n1,,EC50,,,,H37Rv,,>12.5 µg/mL
Nc1sc(-c2ccccc2)cc1C(=O)NC12CC3CC(CC(C3)C1)C2,,MIC,,,,H37Rv,resazurin,>100 µg/mL
CN(C)CCC(=O)c1ccc(Br)cc1,,MIC,,,,H37Rv,,>100 µg/mL
Cc1ccc(C(=O)CCC(=O)NC[C@H]2CN(c3ccc(-n4cncn4)c(F)c3)C(=O)O2)c(C)c1,,MIC,,,,10 clinical isolates resistant,,1–2 µg/mL
O=C(NNC(=O)C(Cl)Cl)c1ccc([N+](=O)[O-])cc1,,MIC,,,,,,>200 µg/mL
CC(=O)Oc1ccccc1C(=O)O,,MIC,,,,H37Rv,,100 µg/mL
CC1(C)N=c2cc3c(cc2N1c1ccc(Cl)cc1)=Nc1ccccc1N3c1ccc(Cl)cc1,,MIC,,,,PAS-R,,0.8 µg/mL
COc1c(OCC(N)=O)cc2oc3cc(O)c(CCC(C)C)c(O)c3c(=O)c2c1CCC(C)C,,MIC,,,,H37Ra,resazurin,1.56 µg/mL
COc1ccc(C(=O)NNC(=O)c2ccc(OC)cc2)cc1,,MIC,,,,,,>200 µg/mL
Nc1ccc(NC(=O)CC(=O)c2ccccc2)c(Cl)c1,,MIC,,,,H37Rv,,25 µg/mL
CC(=O)Nc1ccc(C(=O)CCC(=O)NC[C@H]2CN(c3ccc(N4CCCCC4)c(F)c3)C(=O)O2)cc1,,MIC,,,,10 clinical isolates resistant,,>16 µg/mL
CCCCCOc1cc2oc3cc(O)c(CCC(C)C)c(O)c3c(=O)c2c(CCC(C)C)c1OC,,MIC,,,,H37Ra,resazurin,>200 µg/mL
Cc1cc(Br)cc(Br)c1N,,MIC,,,,H37Rv,,100 µg/mL
C[C@H]1COc2c(N3CCN(C)CC3)c(F)cc3c(=O)c(C(=O)O)cn1c23,,MIC50,,,,250 isolates,,0.5 µg/mL
CCc1nc2ccccc2n1CCCCSc1ncc(C)s1,,MIC99,,,,H37Rv,turbidity / fluorescence,>20 µM
CCOC(=O)c1c(NC(=O)c2c(F)c(F)c(F)c(F)c2F)sc2c1CCNC2=O,,EC90,,,,ATCC35838,turbidity,1.9 µM
CC(=O)c1ccc(N=Nc2c(O)c3ccccc3n(C)c2=O)cc1,,inhibition,,,6.25 µg/mL,H37Rv,resazurin,20%
CC(=O)NNc1nc(C)c(C(/C=C/c2ccc(Cl)cc2)=N/NC(=S)NN)s1,,inhibition,,,6.25 µg/mL,H37Rv,resazurin,7%
Cn1c(=N)sc2ccccc21,,MIC,,,,H37Rv,,100 µg/mL
C/C=N/NC(=O)c1ccccc1Cl,,MIC,,,,,,40 µg/mL
C=CCOc1cc2oc3cc(O)c(CCC(C)C)c(O)c3c(=O)c2c(CCC(C)C)c1OC,,MIC,,MDR,,M27,resazurin,3.12 µg/mL
CCCCCCCCCCCCCC(=O)OCCN1CCN(CCCN2c3ccccc3Sc3ccc(C(F)(F)F)cc32)CC1.Cl.Cl,,inhibition,,,12.5 µg/mL,H37Rv,BACTEC,-18%
COc1cc2oc3cc(=O)/c(=C(\C)O)c(CCC(C)C)c3c(O)c2c(=O)c1CCC(C)C,,MIC,,,,H37Ra,resazurin,12.5 µg/mL
COc1ccc(-n2c(O)c3ccccc3cc2=O)cc1,,MIC,,,,H37Rv,,25 µg/mL
CCc1nc2ccccc2n1CCCNc1ccc(C)c(C)c1,,MIC90,,QcrB M342T,,H37Rv,turbidity / fluorescence,35 µM
CCN1CCc2c(sc(NC(=O)c3c(F)c(F)c(F)c(F)c3F)c2C(N)=O)C1,,EC50,,,,ATCC 35838 RIF-R2 rifampicin-resistant,turbidity,1.9 µM
O=C(N/N=C/c1ccc(O)cc1)c1ccc(Nc2ccccc2)cc1,,MIC,,,,,,>40 µg/mL
Cc1c(F)c(N2CCNC(C)C2)cc2c1c(=O)c(C(=O)O)cn2C1CC1,,Mean MIC,,,,250 isolates,,0.842 µg/mL
O=C(Nc1cccc(Cl)c1)c1c[nH]c2cc(Cl)ccc2c1=O,,MIC,,,,H37Rv,,25 µg/mL
O=C1C(=O)c2ccccc2C(O)=C1C(C1=C(O)c2ccccc2C(=O)C1=O)c1ccc(C(C2=C(O)c3ccccc3C(=O)C2=O)C2=C(O)c3ccccc3C(=O)C2=O)cc1,,MIC,,,,H37Rv,BACTEC,≥12.8 µg/mL
CC(NNC(=O)c1ccncc1)c1ccc(Cl)cc1Cl,inside macrophages,EC90,Macrophages,,,Erdman,colony count,1.38 µg/mL
O=c1ccc(C2Nc3ccccc3S2)c[nH]1,,MIC,,,,H37Rv,,1.6 µg/mL
O=C(NN=C1CCCCC1)c1ccccc1Cl,,MIC,,,,,,10 µg/mL
c1ccc(-c2nc3ccccc3s2)cc1,,MIC,,,,H37Rv,,>100 µg/mL
Nc1nnnn1NC(=O)c1ccccc1,,inhibition,,,12.5 µg/mL,H37Rv,BACTEC,2%
N#C[B][n+]1ccc(C(=O)NNCc2ccccc2)cc1,inside macrophages,EC50,Macrophages,,,Erdman,colony count,<0.116 µg/mL
O=c1[nH]c2ccc(Cl)cc2c(O)c1N=Nc1ccc(Cl)c(Cl)c1,,MIC,,,,H37Rv,resazurin,<6.25 µg/mL
CCOC(=O)Nc1cc(N/N=C/c2ccccc2)c(N)c(N)n1,,EC50,,,,H37Rv,,<12.5 µg/mL
O=C(O)COc1ccc(N=Nc2ccccc2)cc1,,MIC,,,,H37Rv,,25 µg/mL
CC(=O)c1ccc(N=Nc2c(O)c3cccc(Cl)c3[nH]c2=O)cc1,,inhibition,,,6.25 µg/mL,H37Rv,resazurin,24%
O=C(O)c1cccc2c([N+](=O)[O-])cccc12,,MIC,,,,H37Rv,,100 µg/mL
O=C(NNS(=O)(=O)c1ccc(Cl)c(Cl)c1)c1ccccc1,,MIC,,,,,,200 µg/mL
CN1C(=O)Cn2c(nn(CCN3CCCC3)c(=O)c2=O)-c2cc(Cl)ccc21,,inhibition,,,12.5 µg/mL,H37Rv,BACTEC,6%
N#C[B][n+]1ccc(C(=O)NNCC(F)(F)F)cc1,inside macrophages,EC90,Macrophages,,,Erdman,colony count,1.14 µg/mL
Nc1nc2c(C(=O)N3CCCC3)nnn2c2ccccc12,,inhibition,,,12.5 µg/mL,H37Rv,BACTEC,-1%
CCOC(=O)c1c(NC(=O)c2c(F)c(F)c(F)c(F)c2F)sc2c1CCOC2,,MIC,,gyrA mutant (D94N),,H37Rv,turbidity,0.33 µM
O=C(CN1CCN(c2ccccc2)CC1)N1CCc2c([nH]c3ccccc23)C1c1cccnc1,,MIC bound,,,,H37Rv,resazurin,>6.25 µg/mL
NNC(=O)c1ccccc1,,MIC,,,,,,200 µg/mL
COc1ccccc1N=N/C(=N\Nc1ccccc1OC)C(=O)Nc1ccccc1,,MIC bound,,,,H37Rv,BACTEC,>12.5 µg/mL
S=C1NCCS1,,MIC,,,,H37Rv,,>100 µg/mL
O=C1CN(CCl)C(=O)CN1CCl,,inhibition,,,12.5 µg/mL,H37Rv,BACTEC,0%
Nc1ccc(S(N)(=O)=O)cc1,,MIC,,,,H37Rv,,>100 µg/mL

An empty or dashed field is not shown. Percent inhibition refers to the dose given; in toxicity tests it is the harm to the cells. A number after MIC or MFC names an inhibition level or a share of isolates. ECn: concentration that inhibits the pathogen or its effect by n%. Rows are shuffled and stem from different studies. a–b is a range or a potency band.